Measured values taken from patent US20230218721A1 (ZHEJIANG DOER BIOLOGICS CO., LTD., priority 2020, published 2023).

Assay: general procedure: Fmoc solid-phase peptide synthesis; Rink amide MBHA; DIC/HOBt
Conditions: whole synthesis, scale of the general procedure 1.0 mmol

Row | Substance | final purity (method not given) [%]
1 | YSEGT FTSDX10 SKYLDSQAAQDFVQWLLAGGPSSGAPPPS-NH2; X10 = K (((octadecanedioic acid monoacyl)-γE)-2xOEG) | 96.5
2 | YSEGT FTSDX10 SKYLDSQAAQDFVQWLLAGGPSSGAPPPS-NH2; X10 = K (((eicosandioic acid monoacyl)-γE)-2xOEG) | 97.1
